Experimental data as given in publication PMC9042943.

Target: Recombinant Omicron (BA.1) variant SARS-CoV-2-S protein RBD monomer, spike residues 316-534 (SARS-CoV-2)
Assay: SPR

## Recombinant hACE2 protein, residues 1-740 (from UniProt Q9BYF1-1 18-740) (receptor)
  Kd: 6.59 nM
